A mixed list of measured activities; the numbers were collected in NIAID ChemDB.

Common to all: growth or infection tests; species: HIV-1; method: cytopathic effect / MTT; endpoint: EC50

ECn is the concentration giving n% inhibition of infection, replication or growth. Blank or dashed fields: not listed here. Conditions beyond the fields shown may differ between rows.

smiles,cells,mutations,strain,result
Cc1cc(/C=C2\C(=O)Nc3ccc(S(=O)(=O)N(CC(C)C)C[C@@H](O)[C@H](Cc4ccccc4)NC(=O)O[C@H]4CO[C@H]5OCC[C@H]54)cc32)cc(C)c1O,MT-4,PR-L10F M46I M71V I84V,F,0.05 µM
CCOCn1c(Cc2ccccc2)c(C(C)C)c(=O)[nH]c1=O,MT-4,-,IIIB,0.02 µM
CCC(C)Sc1nc(Cc2cccc3ccccc23)cc(=O)[nH]1,MT-4,-,IIIB,0.33 µM
Nc1nc(=O)n([C@H]2O[C@@H](CO)[C@@H](O)[C@@H]2O)cc1F,CEM + CEM-SS,-,LAI,>100 µM
CCc1c(Cc2c(F)cccc2F)nc(SC(C)C)[nH]c1=O,MT-4,-,IIIB,0.1 µM
CC1(C)Cc2c(Br)c(Br)c(Br)c(O)c2O1,MT-4,-,-,>60 µM
CCc1c[nH]c(=O)c(N)c1Sc1cc(C)cc(C)c1,CEM + CEM-SS,RT-Y181C,N119(RT-Y181C),41.5 µM
Cc1nc(/C(O)=C/c2cc(CCc3ccccc3)ncn2)cs1,MT-4,-,IIIB,>12.5 µg/mL
CC1(C)[C@@H](O[C@H]2O[C@H](CO)[C@@H](O)[C@H](O)[C@H]2O[C@@H]2O[C@H](CO)[C@@H](O)[C@H](O)[C@H]2O)CC[C@]2(C)C3C=CC4=C5C[C@@](C)(CO)CC[C@]5(C)CC[C@@]4(C)[C@]3(C)CC[C@@H]12,MT-4,-,IIIB,~160 µM
C[Si](O)(O[Si](C)(CCCn1cnc2c(N)ncnc21)c1ccccc1)c1ccccc1,MT-2,-,IIIB,10 µM
CN(C)C(=O)c1ccc(N2C(=O)C=CC3Nc4ccccc4C32)cc1,MT-4,-,LAI,>32 µM
Cc1ccc(S(=O)(=O)c2ccsc2NC(=O)C(F)(F)F)cc1,CEM + CEM/O,-,IIIB,>8 µg/mL
O=C(NCc1ccc(O)c(O)c1)c1cc2cc(O)c(O)cc2[nH]1,CEM,-,-,>33 µM
CCOCn1c(Cc2ccccc2)c(C(C)C)c(=O)[nH]c1=O,MT-4,-,RF,0.018 µM
Cc1ccc(/C=C2\C(=O)Nc3ccc(S(=O)(=O)N(CC(C)C)C[C@@H](O)[C@H](Cc4ccccc4)NC(=O)O[C@H]4CO[C@H]5OCC[C@H]54)cc32)s1,MT-4,-,LAI,0.011 µM
O=C(Nc1sc(Br)cc1S(=O)(=O)c1ccc(Cl)cc1)C(F)(F)F,CEM + CEM/O,-,IIIB,>8 µg/mL
Cc1ncc(C(c2ccccc2)n2cncn2)c(-c2ccccc2)n1,MT-4,-,IIIB,>200 µM
O/C(=C\c1cc(CCc2ccccc2)ncn1)c1cnccn1,MT-4,-,IIIB,>66 µM
CSCSc1nc(Cc2c(F)cccc2F)c(C)c(=O)[nH]1,MT-4,RT-Y181C,IIIB,20 µM
Cc1nn(C(C)C)c(Sc2cc(Cl)cc(Cl)c2)c1Cc1ccncc1,MT-4 + MT4,-,HXB2,0.003 µM
O=C(O)C(=O)/C=C(\O)c1cn(S(=O)(=O)c2ccccc2)c2ccc(Cl)cc12,MT-4,-,IIIB,6 µM
CC1(C)[C@@H](O[C@H]2O[C@H](C(=O)O)[C@@H](O)[C@H](O)[C@H]2O[C@@H]2O[C@H](C(=O)O)[C@@H](O)[C@H](O)[C@H]2O)CC[C@]2(C)[C@H]3C(=O)C=C4[C@@H]5C[C@@](C)(CO)CC[C@]5(C)CC[C@@]4(C)[C@]3(C)CC[C@@H]12,MT-4,-,IIIB,~160 µM
N#Cc1cc2[nH]c3ccccc3c2n(-c2ccc([N+](=O)[O-])cc2)c1=O,MT-4,RT-V106A F227L,G,0.63 µM
O=C(NCCCCCCNC(=O)c1cc2cc(O)c(O)cc2[nH]1)c1cc2cc(O)c(O)cc2[nH]1,CEM,-,-,>26 µM
O=C(NCc1ccc(F)cc1)C1C(=O)N(O)C(=O)c2ccccc21,MT-4,-,IIIB,2.34 µM
CC[C@H](C)[C@H](NC(=O)[C@H](Cc1ccccc1)CC(O)CN1C[C@H]2CCCC[C@H]2C[C@H]1C(=O)NC(C)(C)C)C(=O)N[C@H](C)c1nc2ccccc2[nH]1,MT-2,-,IIIB,0.85 µM
O=C(NCc1ccccc1)c1cc2cc3c(cc2[nH]1)OCO3,CEM,-,-,>200 µM
COc1ccccc1/C=C1\C(=O)Nc2ccc(S(=O)(=O)N(CC(C)C)C[C@@H](O)[C@H](Cc3ccccc3)NC(=O)O[C@H]3CO[C@H]4OCC[C@H]43)cc21,MT-4,-,LAI,0.078 µM
O=C(CCCCCCCCCCC(=O)Nc1cc(S(=O)(=O)O)c2cccc(S(=O)(=O)O)c2c1)Nc1cc(S(=O)(=O)O)c2cccc(S(=O)(=O)O)c2c1,MT-4,-,IIIB,46 µM
COC(=O)c1ccccc1S(=O)(=O)c1ccsc1NC=O,CEM + CEM/O,-,IIIB,18 µg/mL
Nc1nc(=O)n([C@H]2O[C@@H](CO)[C@H](O)[C@H]2O)cc1F,CEM + CEM-SS,-,LAI,>100 µM
CC(C)CN(C[C@@H](O)[C@H](Cc1ccccc1)NC(=O)O[C@H]1CO[C@H]2OCC[C@H]21)S(=O)(=O)c1ccc2c(c1)/C(=C/c1ccc(-c3ccccn3)cc1)C(=O)N2,MT-4,PR-L10F M46I M71V I84V,F,0.158 µM
Nc1c(S(=O)(=O)O)cc2cc(S(=O)(=O)O)cc(O)c2c1O,MT-4,-,HE,9.2 µM
Cn1c2ccccc2c2c1cc(C#N)c(=O)n2-c1ccc([N+](=O)[O-])cc1,MT-4,RT-Y188L,F,0.04 µM
O/C(=C\c1cc(CCc2ccccc2)ncn1)c1ccccc1,MT-4,-,IIIB,>12.5 µg/mL
COC(C)(C)/C=C/C[C@](C)(O)C1[C@H](O)C[C@@]2(C)[C@@H]3CC=C4[C@@H](C[C@H](O)[C@@H](O)C4(C)C)[C@]3(C)C(=O)C[C@]12C,C8166,-,-,91.8 µM
CC1(C)Cc2c(Br)c(Br)c(Br)c(OCCCN3CCN(c4ccccn4)CC3)c2O1,MT-4,-,-,>47 µM
O=C(NCc1ccccc1)c1cc2cc(O)c(O)cc2[nH]1,CEM,-,-,>29 µM
C=C1[C@H](n2cnc(N)nc2=O)O[C@H](CO)[C@H]1O,MT-2,-,-,>100 µM
Nc1sccc1S(=O)(=O)c1ccccc1,CEM + CEM/O,-,IIIB,23 µg/mL
Nc1nc(=O)n([C@@H]2CC[C@H](CO)O2)cc1F,MT-2,-,IIIB,<1.2 µM
O=C(NCCc1ccccc1)c1cc2cc(O)c(O)cc2[nH]1,CEM,-,-,>24 µM
CCC(C)Sc1nc(Cc2ccccc2)c(C)c(=O)[nH]1,MT-4,-,IIIB,0.6 µM
CN(C)c1ncc(C(c2ccccc2)n2cncn2)c(-c2ccccc2)n1,MT-4,-,IIIB,>97 µM
C=C1[C@H](O)[C@@H](CO)O[C@@H]1n1cnc(N)nc1=O,MT-2,-,-,>100 µM
N#CC1=CC2C(c3ccccc3N2CCCCN2CCOCC2)N(c2ccc([N+](=O)[O-])cc2)C1=O,MT-4,-,LAI,<1 µM
Cc1cccc(Sc2c(C)c[nH]c(=O)c2N)c1,CEM + CEM-SS,RT-Y181C,N119(RT-Y181C),>100 µM
Cc1ncc(C(c2ccccc2)n2ccnc2)c(-c2ccccc2)n1,MT-4,-,IIIB,>200 µM
CN1C(=O)C(c2cc(Cl)c(O)c(Cl)c2)NC(=O)[C@@H]2NC(=O)C(c3cc(Cl)c(O)c(Cl)c3)NC(=O)[C@H](NC(=O)C(=O)c3cc(Cl)c(O)c(Cl)c3)Cc3c[nH]c4c(cccc34)-c3cc2cc(c3O)Oc2ccc(cc2)CC1C(=O)NC(C(=O)O)c1ccc(O)cc1,MT-4,-,IIIB,1.7 µM
Cc1cc(C)cc(Sc2c(N)c(=O)[nH]c3ccccc23)c1,CEM + CEM-SS,RT-Y181C,N119(RT-Y181C),4.3 µM
c1ccc(-c2ccc(C(c3ccccc3)n3ccnc3)cc2)cc1,MT-4,-,IIIB,28 µM
O/C(=C\c1cc(CCc2ccccc2)ncn1)c1ccncc1,MT-4,-,IIIB,>12.5 µg/mL
C=C1[C@H](n2cc(C)c(=O)[nH]c2=O)O[C@H](CO)[C@H]1O,MT-2,-,-,>100 µM
O=C(O)/C(O)=C/c1ncccc1OCc1ccccc1,MT-4,-,IIIB,>147 µM
Nc1nc(=O)n([C@@H]2C[C@H](O)[C@H](CO)O2)cc1F,CEM + CEM-SS,-,LAI,>100 µM
O=c1[nH]c(=O)n(COCc2ccccc2)c2c1COC2c1ccccc1,MT-4,-,IIIB,10 µM
CCC(Cc1cccc(NS(=O)(=O)c2ccc(C(F)(F)F)cn2)c1)c1cc(O)c(C(c2ccccc2)C2CC2)c(=O)o1,MT-4,-,IIIB,23.6 µM
C[C@H](CCC=C(CO)CO)[C@H]1CC[C@@]2(C)C3CC=C4[C@@H](CC[C@H](O)C4(C)C)[C@]3(C)C(=O)C[C@]12C,C8166,-,-,13.2 µM

The last 7 rows once more:

| smiles | cells | mutations | strain | result |
|---|---|---|---|---|
| O/C(=C\c1cc(CCc2ccccc2)ncn1)c1ccncc1 | MT-4 | - | IIIB | >12.5 µg/mL |
| C=C1[C@H](n2cc(C)c(=O)[nH]c2=O)O[C@H](CO)[C@H]1O | MT-2 | - | - | >100 µM |
| O=C(O)/C(O)=C/c1ncccc1OCc1ccccc1 | MT-4 | - | IIIB | >147 µM |
| Nc1nc(=O)n([C@@H]2C[C@H](O)[C@H](CO)O2)cc1F | CEM + CEM-SS | - | LAI | >100 µM |
| O=c1[nH]c(=O)n(COCc2ccccc2)c2c1COC2c1ccccc1 | MT-4 | - | IIIB | 10 µM |
| CCC(Cc1cccc(NS(=O)(=O)c2ccc(C(F)(F)F)cn2)c1)c1cc(O)c(C(c2ccccc2)C2CC2)c(=O)o1 | MT-4 | - | IIIB | 23.6 µM |
| C[C@H](CCC=C(CO)CO)[C@H]1CC[C@@]2(C)C3CC=C4[C@@H](CC[C@H](O)C4(C)C)[C@]3(C)C(=O)C[C@]12C | C8166 | - | - | 13.2 µM |